Values from PubChem BioAssay AID624099 (ICCB-Longwood, 2012)
Aim: 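Host factors E2 relies on to silence an HPV18 LCR reporter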 (primary screen). System: human C33A cervical carcinoma cells (HPV-negative) stably expressing BPV1 E2 and an HPV18 LCR luciferase reporter. Knock-down reagent: siRNA pool against human genes, 40 nM. Duration: 72 h. Detection: 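Per-well luciferase luminescence, z-scored on each plate against the plate mean and SD with control wells left out, then averaged across three replicate plates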. Direction: mean z-score and z-score: higher = stronger reporter signal, weaker E2 silencing. Active means: 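Mean z ≥ 2 together with z ≥ 2 in two or more of the three replicates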.
Here is one part, drawn at random, of about 21,000 reagents tested. 497 of all reagents (2.4%) were called active. 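Higher z means weaker E2 silencing; only reporter increases were scored, and knock-downs that hurt cell survival may mask genuine repressor factors.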 Reagent sequences are not shown.

For ADAMTSL5 (GeneID 339366), the values are mean z-score 0.97; z-score, replicate A = 1.04; z-score, replicate B = 0.79; z-score, replicate C = 1.08; inactive.
After knock-down of FBXO27 (GeneID 126433) the results were mean z-score -1.31; z-score, replicate A = -1.52; z-score, replicate B = -1.11; z-score, replicate C = -1.28; inactive.
TSKU (GeneID 25987) gave mean z-score -1.72; z-score, replicate A = -1.64; z-score, replicate B = -1.71; z-score, replicate C = -1.82; inactive.
PDE7A (GeneID 5150) gave mean z-score 0.7; z-score, replicate A = 0.35; z-score, replicate B = 0.73; z-score, replicate C = 1.01; inactive.
Depletion of BRF2 (GeneID 55290) resulted in: mean z-score 0.39; z-score, replicate A = 0.72; z-score, replicate B = 0.12; z-score, replicate C = 0.34; inactive.
Depletion of MUC5AC (GeneID 4586) resulted in: mean z-score -0.36; z-score, replicate A = -0.3; z-score, replicate B = -0.34; z-score, replicate C = -0.43; inactive.
Silencing of GUCY2C (GeneID 2984) gave: mean z-score 0.69; z-score, replicate A = 0.8; z-score, replicate B = 0.48; z-score, replicate C = 0.8; inactive.
ACSL4 (GeneID 2182) showed mean z-score -0.23; z-score, replicate A = -0.25; z-score, replicate B = -0.2; z-score, replicate C = -0.24; inactive.

In a second layout: entries from further up.
gene | mean z-score | z-score, replicate A | z-score, replicate B | z-score, replicate C | call
BRF2 (GeneID 55290) | 0.39 | 0.72 | 0.12 | 0.34 | inactive
MUC5AC (GeneID 4586) | -0.36 | -0.3 | -0.34 | -0.43 | inactive

Further records follow.
Silencing of PABIR1 (GeneID 116224) gave: mean z-score 0.08; z-score, replicate A = 0.34; z-score, replicate B = -0.2; z-score, replicate C = 0.1; inactive.
Silencing of ROGDI (GeneID 79641) came out at: mean z-score 0.88; z-score, replicate A = 1.02; z-score, replicate B = 0.47; z-score, replicate C = 1.14; inactive.
After knock-down of LOC145846 (retired record) (GeneID 145846), the record shows mean z-score 1.11; z-score, replicate A = 0.9; z-score, replicate B = 1.43; z-score, replicate C = 0.99; inactive.
AHNAK (GeneID 79026) gave mean z-score 0.59; z-score, replicate A = 0.66; z-score, replicate B = 0.48; z-score, replicate C = 0.63; inactive.
